Assay results published in patent US20240254204A1 (NATIONAL UNIVERSITY OF SINGAPORE, published 2024).
Substitutions are numbered along the chain they refer to.

B1: Antibody 11 (SS6V11-E7) (antibody, V domains shown)
VH: QVQLQESGPGLVKPSETLSLTCTVSGGFIGPHYWSWVRQPPGKGLEWIGYIYISGSTNYNPSLKSRLTISVDMSKSQFSLTLSSATAADTAVYYCARGGGYLETGPFEYWGQGTLVTVSS
VL: DIVMTQSPLSLPVTPGEPASISCRSSQSLLQNNGYNYLAWYLQKPGQSPQLLIYLSSTRASGVPDRFSGSGSGTDFTLKISRVEAEDVGVYYCMQSLQIPGTFGQGTRLEIK
B2: Antibody 13 (SS6V13-F1) (antibody, V domains shown)
VH: QVQLQESGPGLVKPSETLSLTCSVSGVSILGSYWGWIRQPPGTGLQWIGYIYFSENTNYNPSLQSRVTMSLDTSKNLLSLKLSSVTAADTAVYYCARGGGYLETGPFDSWGQGTLVTVSS
VL: B1 VL with S28G, L30V, N32S, S56G, T58N, S96G, I99T
B3: Antibody 20 (SS6V20-F5) (antibody, V domains shown)
VH: QVQLQESGPGLVKPSETLSLTCTVSGGSIIGYYWSWIRQPPGKGLEWIGYIYFSANTNYNPSLKSRVTMSVDMSKKQFSLKLRSVTAADTAVYYCARGGGYLETGPLDFWGQGILVTVSS
VL: B1 VL with L30M, N32L, K44R, S56G, S81T, S96G
B4: Antibody 3 (SS6V3-G2) (antibody, V domains shown)
VH: QVQLVQSGAEVKRPGASVKVSCKASGYSFTNSGITWVRQAPGQGLEWMGGTNFYNGITNYPQNIQGRVTMTTDTSTNTAYLELTSLRSEDTAMYYCALNRVAIFNDGYNPLGYWGQGTLVTVSS
VL: DIVMTQSPDSLAVSLGERATINCKSSQSVLYSSNNKNYLAWYQQKPGQPPKLLIYWASSRESGVPDRFSGSGSGTDFTLTIDRLQAEDVAIYYCQQYFSSPFSFGGGTKVEIK
B5: Antibody 4 (SS6V4-A1) (antibody, V domains shown)
VH: EVQLVQSGAEVKKPGEALKISCQGSGYTFSMYWIAWVRQMPGKGLEWMGIIYPDDSDRRYSPSFQGQVTISVDKSISTAYLQWSSLKASDTAIYYCARLQNGYSYGLLENWGQGTLVTVSS
VL: DIVMTQSPDSLTVSLGERATINCKSSQSTLYRSNNKNYLAWYQQKPGQPPKLLINWASTREYGVPDRFSGSGSGTDFTLTISSLQAEDVAVYYCQQYYSYPWTFGQGTKVEIK

These binders were tested against SARS-CoV-2 RBD (SARS-CoV-2) (assay: sVNT, cPass kit with SARS-CoV-2 RBD-HRP; HEK293 supernatant).

| Binder | sVNT SARS-CoV-2 (% I) [%] |
| --- | --- |
| B1 | 96.2 |
| B2 | 94.5 |
| B3 | 96.1 |
| B4 | 17.7 |
| B5 | 22.4 |

Each binder was assayed against SARS-CoV-1 RBD (SARS-CoV) (assay: sVNT, cPass kit format with SARS-CoV-1 RBD-HRP; HEK293 supernatant).

| Binder | sVNT SARS-CoV-1 (% I) [%] |
| --- | --- |
| B1 | 96.9 |
| B2 | 95.9 |
| B3 | 96.7 |
| B4 | 8.88 |
| B5 | 15.3 |
